Results of unrelated studies side by side (data: NIAID ChemDB).

All rows: whole-cell or culture tests; species: Candida albicans; measure: inhibition

Rows are shuffled and stem from different studies.

SMILES	setting	dose	strain	value
O=S(=O)(O)O/N=C(\Cc1cn(S(=O)(=O)O)c2ccccc12)SC1OC(CO)C(O)C(O)C1O		400 µg/mL	ATCC 10231	70.5%
CS(=O)(=O)c1ccc(NC(=O)Oc2c(Cl)cc(Cl)cc2Cl)cc1		50 µg/mL		inactive
OC[C@@H]1CO[C@](Cn2ccnc2)(c2ccc(-c3ccccc3)cc2)O1		256 µg/mL	44 strains	75.7%
Cc1c(C(=O)O)c(-c2ccc(Cl)cc2)cn1-c1ccc(F)cc1		83.33 µg/mL	40 strains	10%
OC(Cn1cncn1)(Cn1cncn1)c1ccc(F)cc1F		5 µg/mL		86%
O=C(O)CC(=O)OCC1OC(Oc2c[nH]c3ccccc23)C(O)C(=O)C1O		400 µg/mL	ATCC 10231	56.3%
O=C(O)CCc1ccccc1		500 µg/mL	MY1055	15.3%
CCOc1ccc(SCC#CCN2CCCCC2)cc1		78 µg/mL	CNCM 1180-79	50%
Cc1c(C(=O)N(CCO)CCO)cc(-c2ccc([N+](=O)[O-])cc2)n1Cc1ccc(Cl)cc1		200 µg/mL	20 strains	0%
CCOc1ccc(SCC#CCN2CCN(C)CC2)cc1		78 µg/mL	CNCM 1180-79	50%
c1ccc(-c2ccc(C(c3cccc4ccccc34)n3ccnc3)cc2)cc1		256 µg/mL	23 strains	15%
NS(=O)(=O)c1ccc(N=Cc2c[nH]c3ccccc23)cc1		200 µg/mL		40%
Cc1c(C(=O)O)c(-c2ccc(Cl)cc2)cn1-c1ccc(Br)cc1		24.85 µg/mL	40 strains	2.5%
NCCCC[C@H](NC(=O)[C@H](Cc1c[nH]c2ccccc12)NC(=O)[C@H](CCCCN)NC(=O)[C@@H](N)CCCCN)C(=O)O		100 µM	ATCC 10231	2%
CC(N=Cc1ccccc1O)C(=O)O		200 µg/mL		7%
CC(=O)OCC1C=C(c2ccc(Br)cc2)C(=O)O1		10 µg/mL	ATCC 90028	100%
COc1cccc(C=[NH+]CC(=O)[N-]CC(=O)[O-])c1[O-].O.O.O.[K+]		200 µg/mL		88.8%
Nc1[nH]c(=O)ncc1F		0.25 µg/mL	5208 strains	69%
Cc1ccc(Sc2c(S(=O)c3ccccc3)c(O)c3ccccc3c2O)cc1		0.2 µg/mL		44%
CC(=O)N1CCN(c2ccc(OC[C@H]3CO[C@](Cn4ccnc4)(c4ccc(Cl)cc4Cl)O3)cc2)CC1		5 µg/mL		100%
COc1ccc(C(C(Cc2ccc(Cl)cc2Cl)c2ccc(Cl)cc2)n2ccnc2)cc1		256 µg/mL	28 strains	100%
O=S(=O)(Nc1nccs1)c1ccc(N=Cc2c[nH]c3ccccc23)cc1		200 µg/mL		40%
COc1ccc(SC2=C(Sc3ccc(OC)cc3)C(=O)c3ccccc3C2=O)cc1		0.2 µg/mL		43.5%
CC1=CC(C)=N/C1=C\c1[nH]c(C)cc1C		10 µg/mL		inactive
Cc1c(C(=O)N2CCN(C)CC2)cc(-c2ccc([N+](=O)[O-])cc2)n1-c1ccccc1Cl		200 µg/mL	20 strains	0%
CS(=O)(=O)OCC1COC(Cn2ccnc2)(c2ccc(-c3ccccc3)cc2)O1		256 µg/mL	44 strains	97.5%
O=C1C(Sc2ccccc2)=C(Sc2ccccc2)C(=O)c2ccccc21		0.2 µg/mL		42.6%
CCC(C(=O)c1ccc(OC)cc1)c1ccc(OC)cc1		256 µg/mL	28 strains	0%
CCC(C)n1ncn(-c2ccc(N3CCN(c4ccc(OC[C@H]5CO[C@](Cn6cncn6)(c6ccc(Cl)cc6Cl)O5)cc4)CC3)cc2)c1=O		5 µg/mL		90%
CCCCOc1ccc(SCC#CCN2CCN(C)CC2)cc1		78 µg/mL	CNCM 1180-79	75%
COc1ccc(C(Cc2ccc(Cl)cc2Cl)C(c2ccc(OC)cc2)n2ccnc2)cc1		256 µg/mL	28 strains	100%
Cc1c(C(=O)N(CCO)CCO)cc(-c2ccc([N+](=O)[O-])cc2)n1-c1ccccc1Cl		200 µg/mL	20 strains	0%
COc1ccc(C(Cc2ccc(Cl)cc2)n2cncn2)cc1		256 µg/mL	28 strains	100%
O=C1C(Nc2ccc(Br)cc2)=C(S(=O)c2ccccc2)C(=O)c2ccccc21		0.2 µg/mL		41.4%
Cc1ccc(-n2cc(-c3ccc(Br)cc3)c(C(=O)O)c2C)cc1		47.92 µg/mL	40 strains	5%
CCCOc1ccc(SCC#CI)cc1		78 µg/mL	CNCM 1180-79	100%
Cc1ccc(SC2=C(Sc3ccc(C)cc3)C(=O)c3ccccc3C2=O)cc1		0.2 µg/mL		38.2%
OC[C@H]1CO[C@](Cn2ccnc2)(c2ccc(-c3ccccc3)cc2)O1		256 µg/mL	44 strains	76.3%
CCC(c1ccc(Cl)cc1)C(c1ccc(OC)cc1)n1cncn1		256 µg/mL	28 strains	86%
CCCCOc1ccc(SCC#CCN2CCCCC2)cc1		78 µg/mL	CNCM 1180-79	50%
Cc1ccc(-n2cc(-c3ccc(F)cc3)c(C(=O)O)c2C)cc1		11.91 µg/mL	40 strains	2.5%
NC(N)=NS(=O)(=O)c1ccc(N=Cc2c[nH]c3ccccc23)cc1		200 µg/mL		35%
Clc1ccc(COC(Cn2ccnc2)c2ccc(Cl)cc2Cl)c(Cl)c1	48 h	4 µg/mL	439 isolates	56%
N#C/C(=C1/Nc2ccccc2C1=O)c1c[nH]c2ccccc12		400 µg/mL	ATCC 10231	69.2%
Cc1ccc(-n2cc(-c3ccc(Cl)cc3)c(C(=O)O)c2C)cc1		52.92 µg/mL	40 strains	2.5%

4 of the rows above, restated:

SMILES	setting	dose	strain	value
Clc1ccc(COC(Cn2ccnc2)c2ccc(Cl)cc2Cl)c(Cl)c1	48 h	4 µg/mL	439 isolates	56%
CCCCOc1ccc(SCC#CCN2CCN(C)CC2)cc1		78 µg/mL	CNCM 1180-79	75%
OC[C@H]1CO[C@](Cn2ccnc2)(c2ccc(-c3ccccc3)cc2)O1		256 µg/mL	44 strains	76.3%
CS(=O)(=O)c1ccc(NC(=O)Oc2c(Cl)cc(Cl)cc2Cl)cc1		50 µg/mL		inactive

"inactive" is the filed call at that dose; no cut-off is given. Blank or dashed fields: not listed here. Inhibition is in % at the dose shown (toxicity tests: loss of growth or viability).